# Share of PSTVd loop 27 variants by leaf site

Source: Wu et al. 2024 (doi:10.1371/journal.ppat.1012142), supplementary data.

The pool varies loop 27 of the PSTVd intermediate strain in the pattern UNNNNA; wild type is UUUUCA (5' to 3', with the closing base pair).

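A pool of all variants was put on leaves of three Nicotiana benthamiana plants. Samples came from the inoculated region at 5 days, the leaf margin at 10 and upper systemic leaves at 12.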

Numbers give reads per thousand; 0 = not seen among the reads, higher = more abundant. Each site shows the three plants. "Pool" is the share in the plasmid pool used as inoculum, on the same scale. The inoculated region was read from the minus strand, the other sites from the plus strand. Wild type was 39.4 per thousand in the pool and the most common sequence in every sample (inoculated region 155, 124, 130; leaf margin 823, 907, 920; systemic leaves 805, 787, 933). Sequences that differ at fixed positions probably stem from PCR or sequencing errors, and defective variants can be carried along by functional ones. Samples held 30,013 to 65,426 reads, so the smallest values rest on one or two reads.

| sequence | pool | inoculated region | leaf margin | systemic leaves |
|---|---|---|---|---|
| AAGGAA | 0.0136 | 0 0 0 | 0 0 0 | 0 0 0 |
| AAUCUA | 0.0136 | 0 0 0 | 0 0 0 | 0 0 0 |
| ACGAAA | 0.0136 | 0 0 0 | 0.0333 0 0 | 0 0 0 |
| AGUGUA | 0.0136 | 0 0 0 | 0 0 0 | 0 0 0 |
| CCGCGA | 0.0136 | 0 0 0 | 0 0 0 | 0 0 0 |
| CUAUAA | 0.0136 | 0 0 0 | 0 0 0 | 0 0 0 |
| CUUCUA | 0.244 | 0.0529 0.0327 0.0567 | 0 0 0.233 | 0.0161 0 0 |
| GAAAAA | 0.0136 | 0 0 0 | 0 0.0302 0 | 0 0 0 |
| GAUAAA | 0.0136 | 0 0 0 | 0 0 0 | 0 0 0 |
| GGUUAA | 0.0272 | 0 0 0 | 0 0 0 | 0 0 0 |
| GUCGCA | 0.0136 | 0 0 0 | 0 0 0 | 0 0 0 |
| GUGCAU | 0.0136 | 0 0 0 | 0 0 0 | 0 0 0 |
| GUUUCA | 0.0136 | 0.0176 0 0.0189 | 0.100 0.242 0.155 | 0.129 0.611 0.0984 |
| UAACAA | 5.91 | 4.76 5.12 4.65 | 1.60 0.423 0.620 | 0.0643 0.138 0.216 |
| UAACGA | 2.85 | 0.864 1.01 1.04 | 0 0.0605 0 | 0.0322 0 0 |
| UAAUCA | 1.53 | 1.52 1.72 1.98 | 0.366 0.272 0.129 | 0.0322 0.0611 0.0787 |
| UACACA | 0.421 | 0.600 0.916 0.775 | 0 0.0302 0 | 0 0 0 |
| UAGAGA | 2.77 | 1.64 1.90 1.21 | 0.133 0.363 0.181 | 0.0161 0.0611 0.0393 |
| UAGAUA | 5.00 | 5.26 4.39 5.71 | 0.733 0.605 0.0775 | 0.0643 0.0459 0.138 |
| UAGCGA | 2.32 | 1.09 0.933 0.775 | 0.0333 0.121 0.284 | 0.0161 0 0.0984 |
| UAGGAA | 6.49 | 4.89 4.65 4.40 | 0.800 0.333 0.0775 | 0.0161 0.0917 0.118 |
| UCAAAC | 0.0136 | 0 0 0.0189 | 0 0 0 | 0 0 0 |
| UCAAGA | 2.57 | 0.882 0.622 0.473 | 0.167 0.0302 0.207 | 0.0161 0.0306 0.0197 |
| UCAGAA | 1.53 | 0.547 0.540 0.605 | 0.0333 0.333 0.0258 | 0 0.0611 0.0393 |
| UCAUGA | 4.39 | 0.882 1.06 1.32 | 0 0.544 0.0517 | 0 0.245 0.0197 |
| UCCAAA | 2.40 | 1.06 0.966 0.926 | 0.300 0.0605 0 | 0.0161 0.0611 0.0590 |
| UCCGUA | 2.35 | 0.441 0.475 0.321 | 0.0333 0.0302 0 | 0 0.0306 0 |
| UCCUGA | 1.45 | 1.32 1.37 1.04 | 0 0.121 0.233 | 0.0322 0.0306 0.0590 |
| UCGAUA | 2.92 | 1.57 1.70 1.47 | 0.433 0.665 0.0258 | 0.0161 0.0764 0 |
| UCGGCA | 2.43 | 0.670 0.933 0.567 | 0 0.0605 0 | 0.0322 0 0.0590 |
| UCGUGA | 4.24 | 4.60 4.06 4.29 | 1.77 0.514 0.0517 | 0.0482 0.107 0.0393 |
| UCUAAA | 5.91 | 2.75 3.22 2.08 | 0.600 0.151 0.207 | 0.0322 0.0306 0.0787 |
| UCUUCA | 0.951 | 1.68 1.85 2.27 | 0.400 0.333 0.336 | 0.0965 0.122 0.197 |
| UGAAGA | 2.99 | 6.97 8.36 7.16 | 2.00 0.242 0.0517 | 0.0322 0.107 0.0984 |
| UGACCG | 0.0136 | 0 0 0 | 0 0 0 | 0 0 0 |
| UGACGA | 4.59 | 1.45 1.83 1.32 | 0.100 0.0302 1.11 | 0 0.0306 0.0197 |
| UGAGGA | 4.24 | 1.52 1.60 1.36 | 0.666 0.121 0.491 | 0.0804 0.0306 0.0197 |
| UGAGUA | 5.19 | 5.64 6.37 6.99 | 2.73 0.151 0.258 | 0.0482 0 0.236 |
| UGAUUA | 4.77 | 5.31 5.99 5.82 | 1.47 0.635 0.517 | 0.0965 0.107 0.0787 |
| UGCCAA | 4.40 | 3.00 2.81 2.95 | 0.100 0.272 0.0517 | 0.0322 0.0306 0.0197 |
| UGCCCA | 5.11 | 2.80 3.04 2.51 | 0 0.121 0.336 | 0.0161 0.0153 0.0590 |
| UGCGCA | 5.19 | 1.41 1.69 1.76 | 0 0.0907 0 | 0 0.0764 0.0393 |
| UGCGGU | 0.0136 | 0 0 0 | 0 0 0 | 0 0 0 |
| UGCUCA | 2.91 | 1.75 2.27 1.74 | 0.0333 0.514 0.620 | 0.0482 0.0153 0.0393 |
| UGGAAC | 0.163 | 0.141 0.0818 0.151 | 0.366 0.0302 0 | 0 0 0.0197 |
| UGUAGA | 4.86 | 12.8 12.6 13.1 | 4.30 0.574 0.0775 | 0.177 0.336 0.295 |
| UUAGCA | 2.99 | 0.970 0.998 1.19 | 0.133 0.121 0.0517 | 0.0482 0.0153 0.0393 |
| UUCUCA | 2.32 | 11.0 9.08 12.8 | 1.03 0.423 0.982 | 0.225 0.214 0.315 |
| UUCUGA | 2.57 | 5.33 3.81 4.37 | 0.300 0.212 0 | 0.0161 0.107 0.0984 |
| UUGCAA | 4.21 | 1.89 2.09 1.13 | 0.0333 0.484 0.0258 | 0 0.0764 0.0197 |
| UUUAAA | 5.55 | 1.83 2.60 1.95 | 0.433 0.574 0.543 | 0.0482 0.153 0.334 |
| UUUCCA | 1.92 | 0.441 0.540 0.643 | 0.600 0.181 0.258 | 0.225 0.245 0.295 |
| UUUGUA | 13.7 | 22.2 22.4 25.3 | 6.50 1.21 0.568 | 1.77 0.214 0.315 |
| UUUUAA | 5.32 | 12.6 11.7 12.4 | 5.23 5.62 8.55 | 2.11 3.21 2.16 |
| UUUUAC | 0.0407 | 0.106 0.115 0.170 | 0.0333 0 0.0258 | 0.0161 0 0 |

The first 5 entries again:

- AAGGAA (pool 0.0136) = inoculated region 0 0 0; leaf margin 0 0 0; systemic leaves 0 0 0
- AAUCUA (pool 0.0136) = inoculated region 0 0 0; leaf margin 0 0 0; systemic leaves 0 0 0
- ACGAAA (pool 0.0136) = inoculated region 0 0 0; leaf margin 0.0333 0 0; systemic leaves 0 0 0
- AGUGUA (pool 0.0136) = inoculated region 0 0 0; leaf margin 0 0 0; systemic leaves 0 0 0
- CCGCGA (pool 0.0136) = inoculated region 0 0 0; leaf margin 0 0 0; systemic leaves 0 0 0